Values from PubChem BioAssay AID624099 (ICCB-Longwood, 2012)
Aim: 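Human genes that papillomavirus E2 requires to repress the HPV18 LCR promoter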 (primary screen). System: human C33A cervical carcinoma cells (HPV-negative) stably expressing BPV1 E2 and an HPV18 LCR luciferase reporter. Knock-down reagent: siRNA pool against human genes, 40 nM. Timing: 72 h. Measurement: 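Per-well luciferase luminescence, z-scored on each plate against the plate mean and SD with control wells left out, then averaged across three replicate plates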. Scale: mean z-score and z-score: higher = stronger reporter signal, weaker E2 silencing. Call rule: 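Mean z ≥ 2 together with z ≥ 2 in two or more of the three replicates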.
This is an unselected part of about 21,000 reagents tested. In the full data, 497 (2.4%) are marked active. 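Higher z means weaker E2 silencing; only reporter increases were scored, and knock-downs that hurt cell survival may mask genuine repressor factors.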

no.	gene symbol	PubChem SID	mean z-score	z-score, replicate A	z-score, replicate B	z-score, replicate C	activity call
1	RRM1	SID134310350	0.21	0.94	-0.15	-0.16	inactive
2	CDHR4	SID134327327	-0.34	-0.63	-0.24	-0.16	inactive
3	LY75	SID134323385	0.72	0.99	0.74	0.44	inactive
4	ABCB6	SID134312352	-0.71	-0.58	-0.79	-0.75	inactive
5	LOC137829 (retired record)	SID134325089	-0.38	-0.56	-0.15	-0.42	inactive
6	MFSD1	SID134317944	-0.28	-0.51	0.19	-0.52	inactive
7	AKR7L	SID134329262	-0.88	-0.9	-0.75	-0.98	inactive
8	CSPP1	SID134320475	-0.33	0.1	-0.16	-0.94	inactive
9	XRCC5	SID134314993	1.05	0.87	1.15	1.13	inactive
10	GFRA4	SID134312851	0.31	0.32	0.34	0.27	inactive
11	KANK2	SID134326906	1.45	1.43	1.53	1.38	inactive
12	CNFN	SID134318988	-0.56	-0.65	-0.57	-0.46	inactive
13	IFNA5	SID134316899	-0.68	-0.63	-0.68	-0.74	inactive
14	NEDD4L	SID134312308	-0.02	0.11	0.06	-0.22	inactive
15	TMEM203	SID134319242	-0.52	-0.52	-0.3	-0.76	inactive
16	RPS24	SID134315513	-2.04	-2.04	-2.32	-1.76	inactive
17	DLAT	SID134313360	0.53	0.5	0.47	0.64	inactive
18	CDY1	SID134313757	-0.76	-1.4	-0.41	-0.48	inactive
19	SNX1	SID134321451	0.47	0.65	0.21	0.54	inactive
20	A3GALT2	SID134325207	1.47	1.84	1.24	1.34	inactive
21	GGA1	SID134317906	0.63	0.89	0.46	0.54	inactive
22	SEMA5B	SID134325751	0.27	0.26	0.4	0.16	inactive
23	PRKACB	SID56478825	-0.7	-0.83	-0.62	-0.66	inactive
24	NANP	SID134312342	0.5	0.24	0.47	0.78	inactive
25	OR4D1	SID134325645	1.37	1.54	1.21	1.35	inactive
26	OPN1MW	SID134311118	1	0.96	0.84	1.18	inactive
27	MLF2	SID134316964	-0.84	-0.85	-0.98	-0.68	inactive
28	CASC15	SID134327679	-0.16	-0.06	-0.28	-0.15	inactive
29	PPARGC1B	SID134313423	0.26	0.21	0.28	0.29	inactive
30	RTN4	SID134315213	-0.93	-0.99	-0.82	-0.99	inactive
31	PTP4A3	SID134312014	-1.47	-1.35	-1.65	-1.41	inactive
32	PSMA5	SID134315703	-0.41	-0.7	-0.49	-0.03	inactive
33	PRSS37	SID134326332	0.05	-0.05	0.23	-0.04	inactive
34	LEFTY2	SID134321408	-0.34	-0.64	-0.28	-0.08	inactive
35	VMO1	SID134322802	0.89	3.26	-0.07	-0.53	inactive
36	FANK1	SID134319801	0.43	0.32	0.87	0.11	inactive
37	SGSM3	SID134322193	0.14	0.18	0.13	0.1	inactive
38	AHCYL2	SID134313455	-0.36	-0.07	-0.29	-0.72	inactive
39	CYP26B1	SID134313987	0.22	0.32	0.12	0.22	inactive

Reformatted: 5 of the entries above
LOC137829 (retired record) [SID134325089]: mean z-score = -0.38; z-score, replicate A = -0.56; z-score, replicate B = -0.15; z-score, replicate C = -0.42; activity call = inactive
MFSD1 [SID134317944]: mean z-score = -0.28; z-score, replicate A = -0.51; z-score, replicate B = 0.19; z-score, replicate C = -0.52; activity call = inactive
AKR7L [SID134329262]: mean z-score = -0.88; z-score, replicate A = -0.9; z-score, replicate B = -0.75; z-score, replicate C = -0.98; activity call = inactive
CSPP1 [SID134320475]: mean z-score = -0.33; z-score, replicate A = 0.1; z-score, replicate B = -0.16; z-score, replicate C = -0.94; activity call = inactive
XRCC5 [SID134314993]: mean z-score = 1.05; z-score, replicate A = 0.87; z-score, replicate B = 1.15; z-score, replicate C = 1.13; activity call = inactive
